Test results reported in patent US20240109955A1 (published 2024).
Numbering of substitutions follows the chain as printed.

B1: E8 (antibody, V domains shown)
VH: QVTLRESGPALVKPTQTLTLTCTFSGFSLSTRGVCVSWIRQPPGKALEWLAFIDWDDDKYYNTSLKTRLTISKDTSKNQVVLTMTNVHPVDTATYYCARISSHHGSSWCTTFDYWGQGALVTVSA
VL: DTVMTQSPLSLPVTPGEPASISCRSSQSLLNSNGYNYLDWYVQKPGQSPQLLIYLGSNRASGVPDRFSGSGSGTDFTLKISRVEAEDVGVYYCMQPLQTPLFTFGPGTKVEIK
B2: MX834 (other)
chain 1: QTVVTQEPSFSVSPGGTVTLTCGLSSGSVSTAYFPSWYQQTPGQAPRTLIYGTNTRSSGVPDRFSGSILGNKAALTITGAQADDESDYYCVLYMGRGIVVFGGGTKLTVLGGSSGEIVLTQSPGTLSLSPGERATLSCRASQSVSSSYLAWYQQKPGQAPRLLIYSASSRATGIPDRFSGSGSGTDFTLTISRLEPEDFAVYFCQQYVGLTGWTFGQGTKVEIKGGGGSGGSGSGGGGSASGSGQMQLVQSGPEVKKPGTSVKVSCKASGFTFTSSAVQWVRQRQRLEWIGWIVVGSGNTNYAQKFQERVTITRDMSTSTAYMELSSLRSEDTAVYYCAAPNCSNVVCYDGFDIWGQGTMVTVSSGGSSGQVQLVESGGGVVQPGRSLRLSCAASGFTLSSYGMHWVRQAPGKGLEWVAVISYDGSNKYYVDSVKGRFTISRDNSKNTLYLQMNSLRAEDTAVYYCRWAYWELLPDYYYGMDVWGQGTTVTVSSASGGSGDKTHTCPPCPAPELLGGPSVFLFPPKPKDTLMISRTPEVTCVVVDVSHEDPEVKFNWYVDGVEVHNAKTKPREEQYNSYVVSVLTVLHQDWLNGKEYKCKVSNKALPAPIEKTISKAKGQPREPQVYTLPPCRDELTKNQVSLWCLVKGFYPSDIAVEWESNGQPENNYKTTPPVLDSDGSFFKKLTVDKSRWQQGNVFSCSVLHEALHSHYTQKSLSLSPG
chain 2: B2 chain 1
B3: MX838 (other)
chain 1: B2 chain 1 with V208G
chain 2: DIQMTQSPSSVSASVGDRVIITCRASQGISSWLAWYQQKPGKAPKVLIYDASSLQSGVPSRFSGSGYGTDFTLTISSLQPEDSATYYCQQAKSFPITFGQGTRLEIKGGSSGEIVLTQSPGTLSLSPGERATLSCRASQSVSSSYLAWYQQKPGQAPRLLIYSASSRATGIPDRFSGSGSGTDFTLTISRLEPEDFAVYFCQQYGGLTGWTFGQGTKVEIKGGGGSGGSGSGGGGSASGSGQMQLVQSGPEVKKPGTSVKVSCKASGFTFTSSAVQWVRQRQRLEWIGWIVVGSGNTNYAQKFQERVTITRDMSTSTAYMELSSLRSEDTAVYYCAAPNCSNVVCYDGFDIWGQGTMVTVSSGGSSGQVQLVESGGGVVQPGRSLRLSCAASGFTFSSYAFHWVRQAPGKGLEWVAVISYDGSNQYYADSVKGRFTISRDNSKNTLYLQMNSLRADDTAVYYCARDLAIAVAGTWHYYNGMDVWGQGTTVTVSSASGGSGDKTHTCPPCPAPELLGGPSVFLFPPKPKDTLMISRTPEVTCVVVDVSHEDPEVKFNWYVDGVEVHNAKTKPREEQYNSYVVSVLTVLHQDWLNGKEYKCKVSNKALPAPIEKTISKAKGQPREPQVCTLPPSRDELTKNQVSLSCAVKGFYPSDIAVEWESNGQPENNYKTTPPVLDSDGSFFLVSKLTVDKSRWQQGNVFSCSVLHEALHSHYTQKSLSLSPG
B4: MX835 (other)
chain 1: B2 chain 1 with V208G
chain 2: EIVLTQSPGTLSLSPGERATLSCRASQSVSSSYLAWYQQKPGQAPRLLIYSASSRATGIPDRFSGSGSGTDFTLTISRLEPEDFAVYFCQQYGGLTGWTFGQGTKVEIKGGSSGDIQMTQSPSSVSASVGDRVIITCRASQGISSWLAWYQQKPGKAPKVLIYDASSLQSGVPSRFSGSGYGTDFTLTISSLQPEDSATYYCQQAKSFPITFGQGTRLEIKGGGGSGGSGSGGGGSASGSGQVQLVESGGGVVQPGRSLRLSCAASGFTFSSYAFHWVRQAPGKGLEWVAVISYDGSNQYYADSVKGRFTISRDNSKNTLYLQMNSLRADDTAVYYCARDLAIAVAGTWHYYNGMDVWGQGTTVTVSSGGSSGQMQLVQSGPEVKKPGTSVKVSCKASGFTFTSSAVQWVRQRQRLEWIGWIVVGSGNTNYAQKFQERVTITRDMSTSTAYMELSSLRSEDTAVYYCAAPNCSNVVCYDGFDIWGQGTMVTVSSASGGSGDKTHTCPPCPAPELLGGPSVFLFPPKPKDTLMISRTPEVTCVVVDVSHEDPEVKFNWYVDGVEVHNAKTKPREEQYNSYVVSVLTVLHQDWLNGKEYKCKVSNKALPAPIEKTISKAKGQPREPQVCTLPPSRDELTKNQVSLSCAVKGFYPSDIAVEWESNGQPENNYKTTPPVLDSDGSFFLVSKLTVDKSRWQQGNVFSCSVLHEALHSHYTQKSLSLSPG
B5: B8 (antibody, V domains shown)
VH: EVQLVESGGALIQPGGSLRLSCAASGIIVSANYMSWVRQAPGKGLEWVSVIYSGGSTFYADSVKGRFTISRDNSKNTLYLEMNSLRAEDTAVYYCARDAPILGVSDWGQGTLVTVSS
VL: EIVMTQSPAILSVSPGERATLSCRASQSVAINLAWYQQKPGQAPRLLIYAASSRATGIPGRFSGSGSETNFTLTISSLQSGDFAVYYCQQYITWPPSYTFGQGTKLEIK

Legend:
Test in all cases: cell-based or functional assay
[1] = target: SARS-CoV-2 Omicron variant BA.4/5 spike protein (SARS-CoV-2)
[2] = target: SARS-CoV-2 Omicron variant BQ.1 spike protein (SARS-CoV-2)
[3] = target: SARS-CoV-2 Omicron variant BQ.1.1 spike protein (SARS-CoV-2)
[4] = target: SARS-CoV-2 Omicron variant BA.2.75.2 spike protein (SARS-CoV-2)
[5] = target: SARS-CoV-2 Omicron variant XBB spike protein (SARS-CoV-2)
[6] = target: SARS-CoV-2 spike protein, Omicron sublineage BA.4.7 (R346S, F486V) (SARS-CoV-2, UniProt P0DTC2 14-1273)
[7] = target: SARS-CoV-2 spike protein, Omicron sublineage BF.7 (R346T, F486V) (SARS-CoV-2, UniProt P0DTC2 14-1273)
[8] = target: SARS-CoV-2 spike protein, Omicron sublineage BQ.1.1 (R346T, K444T, F486V) (SARS-CoV-2, UniProt P0DTC2 14-1273)
[9] = target: SARS-CoV-2 spike protein, Omicron sublineage BA.1.1 (R346K) (SARS-CoV-2, UniProt P0DTC2 14-1273)
[10] = target: SARS-CoV-2 spike protein, Omicron sublineage BA.4.6 (R346T, F486V) (SARS-CoV-2, UniProt P0DTC2 14-1273)

| Binder | IC50, pseudovirus neutralization [1] | IC80, pseudovirus neutralization [1] | IC50, pseudovirus neutralization [2] | IC80, pseudovirus neutralization [2] | IC50, pseudovirus neutralization [3] | IC80, pseudovirus neutralization [3] | IC50, pseudovirus neutralization [4] | IC80, pseudovirus neutralization [4] | IC50, pseudovirus neutralization [5] | IC80, pseudovirus neutralization [5] | IC50, pseudovirus neutralization [6] | IC80, pseudovirus neutralization [6] | IC50, pseudovirus neutralization [7] | IC80, pseudovirus neutralization [7] | IC50, pseudovirus neutralization [8] | IC80, pseudovirus neutralization [8] | IC50, pseudovirus neutralization [9] | IC80, pseudovirus neutralization [9] | IC50, pseudovirus neutralization [10] | IC80, pseudovirus neutralization [10] |
| --- | --- | --- | --- | --- | --- | --- | --- | --- | --- | --- | --- | --- | --- | --- | --- | --- | --- | --- | --- | --- |
| B1 | 0.13 ng/mL | 0.49 ng/mL | 124 ng/mL | 5190 ng/mL | 496 ng/mL | 1800 ng/mL | 1.72 ng/mL | 5.9 ng/mL | 61.5 ng/mL | 705 ng/mL | – | – | – | – | – | – | – | – | – | – |
| B2 | – | – | – | – | – | – | – | – | – | – | 39.7 nM | 187 nM | 65.9 nM | 244 nM | 5.12 µM | > 10 µM | 1.6 nM | 3.92 nM | 68.4 nM | 174 nM |
| B3 | – | – | – | – | – | – | – | – | – | – | 11.7 nM | 46.5 nM | 27.1 nM | 132 nM | 5.83 µM | > 10 µM | 1.17 nM | 3.23 nM | 38.8 nM | 115 nM |
| B4 | – | – | – | – | – | – | – | – | – | – | 41 nM | 216 nM | 61.4 nM | 282 nM | 4.24 µM | > 10 µM | 6.52 nM | 11.7 nM | 71.1 nM | 179 nM |
| B5 | 6.97 ng/mL | 14.8 ng/mL | 15 ng/mL | 49.6 ng/mL | 4.57 ng/mL | 21.7 ng/mL | 12.2 ng/mL | 27.4 ng/mL | 13.4 ng/mL | 47.2 ng/mL | – | – | – | – | – | – | – | – | – | – |
